Measured values from several laboratories, pooled; numbers as filed in NIAID ChemDB.

All rows: cytotoxicity tests; cell line: MT-2; endpoint: CC50

CCn: concentration that lowers growth or viability of the cells by n%. An empty or dashed field is not shown. Rows are shuffled and stem from different studies.

SMILES | method | result
COc1ccc2c(c1)[C@@H](N1CCCC1=O)C[C@@H](c1cccc(N)c1)N2 | MTT | 103 µM
Cc1cccc2c(C(=O)C(=O)N3CCN(C(=O)c4ccccc4)CC3)c[nH]c12 | XTT | >10 µM
COc1ccc(N(C)C(=O)[C@H](Cc2ccccc2)NC(=O)c2cc(C)cc(C(=O)N[C@@H](Cc3ccccc3)C(=O)N(C)c3ccc(OC)cc3)c2)cc1 | XTT | 33.3 µM
O=C(NCCCC[C@H](NC(=O)c1cc(O)c(O)c(O)c1)C(=O)O)c1cc(O)c(O)c(O)c1 | neutral red | >38 µM
Cn1nc(NS(C)(=O)=O)c2c(Cl)ccc(-n3c([C@H](Cc4cc(F)cc(F)c4)NC(=O)Cn4nc(C(F)F)c5c4C(F)(F)[C@@H]4C[C@H]54)nc4cc(-c5ccccc5F)ccc4c3=O)c21 | XTT | >1 µM
COC(=O)C(CCNC(=O)/C=C/c1cc(OC)c(OC)c(OC)c1)NC(=O)/C=C/c1cc(OC)c(OC)c(OC)c1 | neutral red | >282 µM
COc1cc2c(c(OC)c1)[C@@H](N1CCCC1=O)C[C@@H](c1cccc(N)c1)N2 | MTT | >50 µM
Cc1nc2sc3c(c2c(-c2ccc(C#N)cc2)c1C(OC(C)(C)C)C(=O)O)CCCC3 | - | >20 µM
Cc1cc(C)c2ccc(-c3cccc([N+](=O)[O-])c3)nc2c1 | MTT | >50 µM
Cn1nc(NS(C)(=O)=O)c2c(Cl)ccc(-n3c([C@H](Cc4cc(F)cc(F)c4)NC(=O)Cn4ccc(C5CC5)n4)nc4cc(-c5ccccc5F)ccc4c3=O)c21 | - | >1 µM
CCOC(C(=O)O)c1c(C)nc2sc3c(c2c1-c1ccc2scnc2c1)CCCC3 | - | >20 µM
Cc1nn([C@@H]2CO[C@H](CO)O2)c(=O)[nH]c1=O | - | >100 µM
CC(C)C[C@H](NC(=O)[C@@H](N)CCCCN)C(=O)N[C@@H](Cc1ccccc1)C(=O)N[C@H](C(=O)N[C@@H](Cc1ccccc1)C(=O)N1CCC[C@H]1C(=O)O)C(C)C | - | >100 µg/mL
COc1ccc(N(C)C(=O)[C@H](Cc2ccccc2)NC(=O)c2cccc(C(=O)N[C@@H](Cc3ccccc3)C(=O)N(C)c3ccc(OC)cc3)n2)cc1 | XTT | 33.3 µM
Cc1cc(C)c2c(c1)N[C@H](c1cccc([N+](=O)[O-])c1)C[C@@H]2N1CCCC1=O | MTT | >50 µM
O=C(C(=O)N1CCN(C(=O)c2ccc(F)cc2)CC1)c1c[nH]c2ccccc12 | XTT | >10 µM
COc1cc(-c2c(C(OC(C)(C)C)C(=O)O)c(C)nc3sc4c(c23)CCCC4)ccn1 | - | >20 µM
COC(=O)C(CCNC(=O)c1ccc(O)c(O)c1)NC(=O)c1ccc(O)c(O)c1 | neutral red | >86 µM
COc1ccc(N(C)C(=O)[C@H](Cc2ccccc2)NC(=O)NS(=O)(=O)N[C@H](Cc2ccccc2)C(=O)N(C)c2ccc(OC)cc2)cc1 | XTT | 33.3 µM
COc1cc(OC)c2ccc(-c3cccc([N+](=O)[O-])c3)nc2c1 | MTT | 103 µM
CN(C(=O)[C@H](Cc1cc(F)cc(F)c1)NC(=O)c1ccc(F)c(C(=O)N[C@@H](Cc2cc(F)cc(F)c2)C(=O)N(C)c2ccc(C3CC3)cc2)c1)c1ccc(C2CC2)cc1 | XTT | 100 µM
CC(C)[C@H](NC(=O)[C@@H](N)Cc1ccccc1)C(=O)N[C@@H](Cc1ccccc1)C(=O)N1CCC[C@H]1C(=O)O | - | 78.86 µg/mL
CN(C(=O)[C@H](Cc1cc(F)cc(F)c1)NC(=O)NS(=O)(=O)N[C@@H](Cc1cc(F)cc(F)c1)C(=O)N(C)c1ccc(=O)n(C)c1)c1ccc(=O)n(C)c1 | XTT | 100 µM
COCCNC(=O)[C@@H](NC(=O)[C@H](Cc1ccc(OC)c(OC)c1OC)C[C@H](O)[C@H](Cc1ccccc1)NC(=O)OC(C)(C)C)C(C)C | - | >100 µM
COC(=O)[C@H](CCCCNC(=O)c1cc(O)c(O)c(O)c1)NC(=O)c1cc(O)c(O)c(O)c1 | neutral red | >29 µM
CCc1ccc(-c2c(C(OC(C)(C)C)C(=O)O)c(C)nc3sc4c(c23)CCCC4)c(O)c1 | - | >20 µM
CC(C)[C@H](N)C(=O)N[C@@H](Cc1ccccc1)C(=O)N1CCC[C@H]1C(=O)O | - | >100 µg/mL
Cc1ccc2c(c1)[C@@H](N1CCCC1=O)C[C@@H](c1cccc([N+](=O)[O-])c1)N2 | ATP | 53.47 µM
CCOC(C(=O)O)c1c(C)nc2sc3c(c2c1-c1ccc(C(F)(F)F)nc1)CCCC3 | - | >20 µM
Cc1cn([C@H]2C=C[C@@H](CO)O2)c(=O)[nH]c1=O | - | >100 µM
CN(C(=O)[C@H](Cc1cc(F)cc(F)c1)NC(=O)N[C@@H](Cc1cc(F)cc(F)c1)C(=O)N(C)c1ccc2scnc2c1)c1ccc2scnc2c1 | XTT | 100 µM
O=C(NCCCC(NC(=O)c1ccc(O)c(O)c1)C(=O)O)c1ccc(O)c(O)c1 | neutral red | >17 µM
Cc1nc2sc3c(c2c(-c2ccccc2O)c1C(OC(C)(C)C)C(=O)O)CCCC3 | - | >20 µM
COc1ccc(N(C)C(=O)[C@H](Cc2cc(F)cc(F)c2)NC(=O)CN2c3ccccc3N(CC(=O)N[C@@H](Cc3cc(F)cc(F)c3)C(=O)N(C)c3ccc(OC)c(F)c3)S2(=O)=O)cc1F | XTT | 100 µM
Cc1nn([C@@H]2CO[C@@H](CO)O2)c(=O)[nH]c1=O | - | >100 µM
O=C(C(=O)N1CCN(C(=O)c2ccc(F)cc2F)CC1)c1c[nH]c2ccccc12 | XTT | >10 µM
Cc1nc2sc3c(c2c(-c2ccc4[nH]ncc4c2)c1C(OC(C)(C)C)C(=O)O)CCCC3 | - | >20 µM
Cc1cc2nc(-c3cccc([N+](=O)[O-])c3)ccc2c(C)c1C | ATP | >189 µM
Cc1ccc(C(=O)N2CCN(C(=O)C(=O)c3c[nH]c4ccccc34)CC2)cc1F | XTT | >10 µM
O=C1CCCN1[C@H]1C[C@@H](c2cccc([N+](=O)[O-])c2)Nc2ccc(I)cc21 | ATP | 60.85 µM
Cc1ccc(C(=O)N2CCN(C(=O)C(=O)c3c[nH]c4ccccc34)CC2)cc1 | XTT | >10 µM
CCN(C(=O)[C@H](Cc1cc(F)cc(F)c1)NC(=O)CN1c2ccccc2N(CC(=O)N[C@@H](Cc2cc(F)cc(F)c2)C(=O)N(CC)c2ccc3oc(=O)n(CC)c3c2)S1(=O)=O)c1ccc2oc(=O)n(CC)c2c1 | XTT | 33.3 µM
CCOC(C(=O)O)c1c(C)nc2sc3c(c2c1-c1ccc2ncn(C)c2c1)CCCC3 | - | >20 µM
COC1CCN(C(=O)[C@H](CC(C)C)NC(=O)[C@@H](N)CCSC)[C@@H]1C(=O)N[C@H](C(=O)N[C@@H](Cc1ccccc1)C(=O)N1CCC[C@H]1C(=O)O)C(C)C | - | 18.65 µg/mL
COc1ccc2c(c1)[C@@H](N1CCCC1=O)C[C@@H](c1cccc([N+](=O)[O-])c1)N2 | MTT | >50 µM

For reference, 4 entries again:

COC(=O)[C@H](CCCCNC(=O)c1cc(O)c(O)c(O)c1)NC(=O)c1cc(O)c(O)c(O)c1 ; method: neutral red ; result: >29 µM
CC(C)[C@H](N)C(=O)N[C@@H](Cc1ccccc1)C(=O)N1CCC[C@H]1C(=O)O ; result: >100 µg/mL
CC(C)C[C@H](NC(=O)[C@@H](N)CCCCN)C(=O)N[C@@H](Cc1ccccc1)C(=O)N[C@H](C(=O)N[C@@H](Cc1ccccc1)C(=O)N1CCC[C@H]1C(=O)O)C(C)C ; result: >100 µg/mL
COc1cc(-c2c(C(OC(C)(C)C)C(=O)O)c(C)nc3sc4c(c23)CCCC4)ccn1 ; result: >20 µM